Pooled drug test results. Numbers come from NIAID ChemDB, via PubChem.

All rows: growth or infection tests; species: Reovirus

Rows are shuffled and stem from different studies.

structure,read by,read-out,strain or isolate,cell line,value
Nc1nccc2c1ncn2[C@@H]1C[C@H](CO)[C@@H](O)[C@H]1O,cytopathic effect,EC50,TYPE 1,VERO,1 µg/mL
OC[C@H]1O[C@@H](n2cnc3cc(Cl)c(Cl)cc32)[C@@H](O)[C@H]1O,cytopathic effect,EC50,TYPE 1,HeLa,>100 µg/mL
C[C@H](COc1cc(N)nc(N)n1)OCP(=O)(O)O,cytopathic effect,EC50,TYPE 1,,>180 µM
Nc1ncnc2c1c(Br)cn2[C@@H]1O[C@H](CO)[C@@H](O)[C@H]1O,cytopathic effect,EC50,TYPE 1,VERO,0.07 µg/mL
Nc1nc2c(nnn2C[C@H]2CC[C@@H](CO)C2)c(=O)[nH]1,cytopathic effect,EC50,TYPE 1,VERO,>200 µg/mL
Nc1ncnc2c1ncn2C[C@@H](CO)OCP(=O)(O)O,cytopathic effect,EC50,TYPE 1,,>50 µM
Nc1ncnc2c1ncn2[C@H]1[C@H](O)[C@H](O)[C@]2(CO)O[C@H]12,cytopathic effect,EC50,TYPE 1,VERO,2 µg/mL
Nc1ncnc2c1c(Br)cn2[C@@H]1O[C@H](CO)[C@@H](O)[C@H]1O,cytopathic effect,EC50,TYPE 1,VERO,0.02 µg/mL
Nc1ncnc2c1ncn2[C@@H]1OC(C#CI)[C@@H](O)[C@H]1O,cytopathic effect,EC50,TYPE 1,VERO,0.78 µM
Nc1ncnc2c1ccn2[C@@H]1O[C@H](CO)[C@@H](O)[C@H]1O,cytopathic effect,EC50,TYPE 1,VERO,0.07 µg/mL
Nc1cc(OC[C@H](CO)OCP(=O)(O)O)nc(N)n1,cytopathic effect,EC50,TYPE 1,,>15 µM
Nc1ncnc2c1ncn2C[C@@H](O)[C@H](O)C(=O)O,cytopathic effect,EC50,TYPE 1,VERO,100 µg/mL
O=c1[nH]c(=O)n([C@H]2C[C@H](O)[C@@H](CO)O2)cc1/C=C/Br,cytopathic effect,EC50,TYPE 1,VERO,>400 µg/mL
O=c1[nH]cnc2c1ncn2[C@@H]1C=C(CO)[C@@H](O)[C@H]1O,cytopathic effect,EC50,TYPE 1,VERO,150 µg/mL
Nc1nccc2c1ncn2[C@@H]1C[C@H](CO)[C@@H](O)[C@H]1O,cytopathic effect,EC50,TYPE 1,VERO,1 µg/mL
Nc1ncnc2c1ncn2[C@@H]1C=C[C@@H](O)[C@H]1O,cytopathic effect,EC50,TYPE 1,VERO,0.7 µg/mL
Nc1ncnc2c1ncn2[C@@H]1C=C(CO)[C@@H](O)[C@H]1O,cytopathic effect,EC50,TYPE 1,VERO,0.2 µg/mL
Nc1nccc2c1ncn2[C@@H]1C[C@H](CO)[C@@H](O)[C@H]1O,cytopathic effect,EC50,TYPE 1,VERO,0.7 µg/mL
Nc1ncnc2c1ncn2C1CC(CO)[C@@H](O)[C@H]1O,cytopathic effect,EC50,TYPE 1,VERO,0.4 µg/mL
OC[C@H]1O[C@@H](n2cnc3cc(Cl)c(Cl)cc32)[C@@H](O)[C@@H]1O,cytopathic effect,EC50,TYPE 1,HeLa,>200 µg/mL
NC(=O)c1csc([C@@H]2O[C@H](CO)[C@@H](O)[C@H]2O)n1,cytopathic effect,EC50,TYPE 3/ABNEY,HeLa,3 µg/mL
O[C@H]1[C@@H](O)COC(n2cnc3cc(Cl)c(Cl)cc32)[C@@H]1O,cytopathic effect,EC50,TYPE 1,HeLa,>300 µg/mL
Nc1ncnc2c1ncn2[C@@H]1C=C(CO)[C@@H](O)[C@H]1O,,MIC,TYPE 1,,0.7 µg/mL
Nc1ncnc2c1ccn2[C@@H]1O[C@H](CO)[C@H](O)[C@H]1O,cytopathic effect,EC50,TYPE 1,VERO,≥40 µg/mL
Nc1nccc2c1ncn2[C@@H]1O[C@H](CO)[C@@H](O)[C@H]1O,cytopathic effect,EC50,TYPE 1,VERO,10 µg/mL
Nc1nc(N)c2nnn(C[C@H]3CC[C@@H](CO)C3)c2n1,cytopathic effect,EC50,TYPE 1,VERO,>100 µg/mL
CC(C)[Si]1(C(C)C)OC[C@H]2O[C@@H](n3cnc4cc(Cl)c(Cl)cc43)[C@@H](O)[C@H]2O[Si](C(C)C)(C(C)C)O1,cytopathic effect,EC50,TYPE 1,HeLa,>10 µg/mL
Nc1ncnc2c1ncn2C[C@H](O)CO,cytopathic effect,EC50,TYPE 1,VERO,70 µg/mL
Nc1ccn([C@@H]2C[C@H](CO)[C@@H](O)[C@H]2O)c(=O)n1,cytopathic effect,EC50,TYPE 1,VERO,0.7 µg/mL
OC[C@H]1O[C@@H](n2cnc3cc(Cl)c(Cl)cc32)[C@H](O)[C@H]1O,cytopathic effect,EC50,TYPE 1,HeLa,>100 µg/mL
Nc1nc(N)c2ncn(C[C@H]3CC[C@@H](CO)C3)c2n1,cytopathic effect,EC50,TYPE 1,VERO,>200 µg/mL

A second listing of 2 rows from above:

structure,read by,read-out,strain or isolate,cell line,value
O=c1[nH]cnc2c1ncn2[C@@H]1C=C(CO)[C@@H](O)[C@H]1O,cytopathic effect,EC50,TYPE 1,VERO,150 µg/mL
Nc1nccc2c1ncn2[C@@H]1C[C@H](CO)[C@@H](O)[C@H]1O,cytopathic effect,EC50,TYPE 1,VERO,0.7 µg/mL

ECn is the concentration giving n% inhibition of infection, replication or growth. An empty or dashed field is not shown.